Test system: Nocardia sp. NRRL 5646
Assay: Growing cell transformation of vanillic acid (HPLC quantification)
Format: cell-based
Settings: growing culture, 48 hours

SMILES: COc1cc(C(=O)O)ccc1O [vanillic acid, 4-hydroxy-3-methoxybenzoic acid]
- substrate decarboxylated to give guaiacol: 69%
- substrate reduced to vanillyl alcohol as the final product: 11%
- vanillic acid metabolized: almost all
